Results of unrelated studies side by side (data: NIAID ChemDB).

All rows: growth or infection tests; species: HIV-1; cells: MT-4; read-out: EC50

ECn: concentration that inhibits the pathogen or its effect by n%. Neighbouring rows are from separate reports. An empty or dashed field is not shown.

compound,strain or isolate,mutations,read by,value
CC(C)=CCN1Cc2cc(Cl)ccc2NC(=O)C1C,-,-,cytopathic effect / MTT,5.5 µM
Nc1nc(NC2CC2)c2ncn([C@H]3C=C[C@@H](CO)C3)c2n1,SW3-10125R,RT M41L A62V T69SSS insertion V75V/A M184I L210W T215Y,cytopathic effect / MTT,22.7 µM
Fc1cccc(Cl)c1C1SCc2nc3ccccc3n21,-,-,cytopathic effect,0.407 µM
CCc1c(Sc2cc(C)cc(C)c2)n(COCCO)c(=O)[nH]c1=O,IIIB,-,cytopathic effect / MTT,0.016 µM
Cc1cc(C#N)cc(C)c1Oc1nc(Nc2ccc(C#N)cc2)nc(N)c1Br,IIIB,L100I,MTT,0.0054 µM
CC1(C)OC[C@@]2(C[C@]34CC[C@H]2C[C@H]3[C@]2(C)CCC(=O)C(C)(C)[C@H]2CC4)O1,NL4-3,-,luciferase / luminescence,24 µM
CC(C)(C)NC(=O)[C@@H]1CN(S(=O)(=O)c2cccs2)CCN1C[C@@H](O)C[C@@H](Cc1ccccc1)C(=O)N[C@H]1c2ccccc2C[C@H]1O,IIIB,-,p24,<0.031 µM
Nc1ncnc2c1ncn2CCOCP(=O)(O)O,IIIB,-,cytopathic effect / MTT,6.47 µM
C[C@H](CCC(=O)O)[C@H]1CC[C@H]2[C@@H]3[C@H](OS(=O)(=O)O)C[C@@H]4C[C@H](O)CC[C@]4(C)[C@H]3C[C@H](O)[C@]12C,IIIB,-,cytopathic effect / MTT,>500 µg/mL
O=C1c2c(O)c(=O)n(-c3ccc(N4CCOCC4)cc3)c(=O)n2CCN1Cc1ccc(F)cc1,-,-,p24,<10 µM
CC(C)C1C(=O)Nc2ccc(Cl)cc2CN1C(=O)OC(C)(C)C,-,-,cytopathic effect / MTT,>100 µM
C[C@H](CCC(=O)O)[C@H]1CC[C@H]2[C@@H]3C[C@H](OS(=O)(=O)O)[C@@H]4C[C@H](OS(=O)(=O)O)CC[C@]4(C)[C@H]3CC[C@]12C,IIIB,-,cytopathic effect / MTT,299 µg/mL
CCOCn1c(Sc2cc(C)cc(C)c2)c(CC)c(=O)[nH]c1=O,A012D,-,cytopathic effect / MTT / p24,0.0027 µM
C=C(C)[C@]12C[C@@H](COC(=O)c3ccccc3)[C@@]34OC5(O[C@@H]1C3[C@@H]1O[C@]1(CO)[C@@H](O)[C@@]1(O)C4C([C@H](C)CCCCCC[C@H]5O)[C@H](C)[C@@H]1OC(=O)c1ccccc1)O2,NL4-3,-,luciferase,>0.00013 µM
CC(C)CN(C[C@@H](O)[C@H](Cc1ccccc1)NC(=O)O[C@H]1CCOC1)S(=O)(=O)c1ccc(N)cc1,IIIB,-,cytopathic effect / MTT,0.12 µM
O=c1c(O)c(-c2ccc(O)c(O)c2)oc2cc(O)cc(O)c12,IIIB,-,p24 / ELISA,53 µg/mL
C[C@H](CCC(=O)O)[C@H]1CC[C@H]2C3[C@H](O)C[C@@H]4C[C@H](OS(=O)(=O)O)CC[C@]4(C)[C@H]3CC[C@]12C,IIIB,-,cytopathic effect / MTT,>335 µg/mL
CC(C)=CCN1Cc2cc(Cl)ccc2NC(=S)C1C,-,-,cytopathic effect / MTT,1.6 µM
CC(=O)ON1COC[C@H]2O[C@@H](n3cc(C)c(=O)[nH]c3=O)C[C@@H]21,IIIB,-,trypan blue,15 µg/mL
C[C@@H]1C[C@@H]2[C@@H](OC[C@@H]2OC(=O)N[C@@H](Cc2ccccc2)[C@H](O)CN2C[C@H]3CCCC[C@H]3C[C@H]2C(=O)NC(C)(C)C)O1,IIIB,-,p24,<0.2 µM
CC(C)=CCN1Cc2cc(Cl)ccc2NCC1C(C)C,-,-,cytopathic effect / MTT,>100 µM
COC(=O)N[C@H](C(=O)N[C@@H](Cc1ccccc1)[C@@H](O)CN(Cc1ccc(-c2ccccn2)cc1)NC(=O)[C@@H](NC(=O)OC)C(C)(C)C)C(C)(C)C,NL4-3,-,p24 / luminescence,0.002 µM
CC(C)CN(C[C@@H](O)[C@H](Cc1ccccc1)NC(=O)O[C@H]1CO[C@H]2OCC[C@H]21)S(=O)(=O)c1ccc(C(N)=O)cc1,NL4-3,-,-,0.038 µM
CC(C)=CCN1Cc2c(F)ccc3[nH]c(=S)n(c23)CC1C,-,-,cytopathic effect,0.006 µM
CC(C)(C)NC(=O)[C@@H]1C[C@@H]2CCCC[C@@H]2CN1C[C@@H](O)[C@H](Cc1ccccc1)NC(=O)O[C@@H]1CO[C@@H]2OCC[C@@H]21,IIIB,-,p24,<0.2 µM
Cc1c(Cc2c(F)cccc2F)nc(SCc2ccc(C(C)C)cc2)[nH]c1=O,-,RT-Y188L,cytopathic effect / MTT,>62 µM
CC(C)(C)OC(=O)NCCCCCCNC(=O)/C=C/c1cn([C@H]2C=C[C@@H](CO)O2)c(=O)[nH]c1=O,IIIB,-,RT activity,>100 µM
CN1CCN(C2(Cn3c(=O)c(O)c4n(c3=O)CCN(Cc3ccc(F)cc3)C4=O)CCCCC2)CC1,-,-,p24,<10 µM
CC(=O)O[C@@H]1[C@@H]2[C@H]([C@H](O)[C@H](OC(C)=O)/C(C)=C/[C@@]34O[C@@]3(C[C@H](C)[C@@H]4O)C(=O)[C@@H]1C)C2(C)C,NL4-3,-,luciferase / luminescence,>44 µM
CCC[C@@]1(CCc2ccccc2)CC(O)=C([C@H](CC)c2cccc(NS(=O)(=O)c3ccc(C(F)(F)F)cn3)c2)C(=O)O1,NL4-3,-,-,0.128 µM
CC(C)(C)NC(=O)[C@@H]1C[C@@H]2CCCC[C@@H]2CN1C[C@@H](O)[C@H](Cc1ccccc1)NC(=O)O[C@H]1CCS(=O)(=O)C1,IIIB,-,p24,<0.364 µM
Nc1ncnc2c1ncn2CCOCP(=O)(O)O,HE,-,-,16 µM
CCOCn1c(Cc2cc(C)cc(C)c2)c(CC)c(=O)[nH]c1=O,RF,-,cytopathic effect / MTT,0.0013 µM
COC(=O)N[C@H](C(=O)N[C@@H](Cc1ccccc1)[C@@H](O)CN(Cc1ccc(-c2ccccn2)cc1)NC(=O)[C@@H](NC(=O)OC)C(C)(C)C)C(C)(C)C,IIIB,-,cytopathic effect / MTT,0.008 µM
Cc1cn([C@H]2C[C@H](N=[N+]=[N-])[C@@H](CO)O2)c(=O)[nH]c1=O,IIIB,-,cytopathic effect / MTT,0.017 µM
CN(C)C(=O)C(=O)N1CCOCC1Cn1c(=O)c(O)c2n(c1=O)CCN(Cc1ccc(F)cc1)C2=O,-,-,p24,<10 µM
Cc1cn([C@H]2C[C@H](N=[N+]=[N-])[C@@H](CO)O2)c(=O)[nH]c1=O,NL4-3,-,luciferase / luminescence,0.008 µg/mL
CC(C)(C)OC(=O)C(C)(C)n1c(=O)c(O)c2n(c1=O)CCN(Cc1ccc(F)cc1)C2=O,-,-,p24,<10 µM
C1CNCCNCCCN(CCN2CCCNCCNCCCNCC2)CCNC1,IIIB,-,MTT,8.5 µg/mL
Cc1cn([C@H]2C=C[C@@H](CO)O2)c(=O)[nH]c1=O,HXBT (P-0),-,-,0.5 µM
CCOCn1c(Sc2cc(C)cc(C)c2)c(CC)c(=O)[nH]c1=S,IIIB,-,cytopathic effect / MTT,0.0056 µM
CC(C)(C)NC(=O)[C@@H]1C[C@@H]2CCCC[C@@H]2CN1C[C@H](O)[C@H](Cc1ccccc1)NC(=O)[C@H](CC(N)=O)NC(=O)c1ccc2ccccc2n1,NL4-3,-,p24 / luminescence,0.019 µM
CC(C)(C)NC(=O)[C@@H]1C[C@@H]2CCCC[C@@H]2CN1C[C@@H](O)[C@H](Cc1ccccc1)NC(=O)O[C@H]1CO[C@H]2OCCC[C@H]21,IIIB,-,p24,<0.1 µM
Cc1cccc(N2C(=O)CS[C@@H]2c2c(Br)cccc2Br)n1,IIIB,-,syncytia,0.22 µM
C[C@H]1C(=O)Nc2ccc(Cl)cc2CN1Cc1ccccc1,-,-,cytopathic effect / MTT,81 µM
Nc1ncnc2c1ncn2CCOCP(=O)(O)O,IIIB,-,cytopathic effect,0.6 µg/mL
Fc1cccc(F)c1C1SCc2nc3ccccc3n21,-,-,cytopathic effect,0.389 µM
C1CNCCNCCCN(CCCN2CCCNCCNCCCNCC2)CCNC1,NL4-3,AMD3100-resistant,cytopathic effect / MTS,67.1 µM
O=C1c2c(O)c(=O)n(C34CC5CC(CC(O)(C5)C3)C4)c(=O)n2CCN1Cc1ccc(F)cc1,-,-,p24,<10 µM
CCCCCCCCCc1ccc(OCCOCCOCCOCCOCCOCCOCCOCCOCCO)cc1,IIIB,-,p24 / ELISA,0.01 µg/mL
CC(C)=CCN1CC(=O)Nc2ccc(Cl)cc2C1,-,-,cytopathic effect / MTT,86.4 µM
O=[N+]([O-])c1ccc(Cl)c(C2SCc3nc4ccccc4n32)c1,-,-,cytopathic effect,7.586 µM
Cc1ccnc2c1NC(=O)c1cccnc1N2C1CC1,-,RT-M41L T215Y,-,<0.2 µM
Cc1ccnc2c1NC(=O)c1cccnc1N2C1CC1,-,RT-K103N Y181C,cytopathic effect / MTT,>100 µM
NS(=O)(=O)c1cccc(CN2C(=O)N(Cc3cccc(S(N)(=O)=O)c3)N(Cc3ccccc3)C[C@@H](O)[C@H]2Cc2ccccc2)c1,IIIB,-,cytopathic effect / MTT,0.39 µM
Cc1cn([C@H]2C=C[C@@H](CO)O2)c(=O)[nH]c1=O,IIIB,-,cytopathic effect / p24 / trypan blue,0.22 µM
Fc1cccc(C2SCc3nc4ccccc4n32)c1,-,-,cytopathic effect,2.884 µM
C[C@H]1C(=O)Nc2ccc(Cl)cc2CN1Cc1ccc[nH]1,-,-,cytopathic effect / MTT,>100 µM
Clc1cccc(Cl)c1C1SCc2nc3ccccc3n21,-,-,cytopathic effect,0.501 µM
Cc1cc(O)cc(C)c1CNC(=O)[C@H](Cc1ccccc1)C[C@H](O)CN1CCN(S(=O)(=O)c2cccs2)C[C@H]1C(=O)NC(C)(C)C,IIIB,-,p24,<0.063 µM
Cc1ccnc2c1NC(=O)c1cccnc1N2C1CC1,UG92029 (subtype A),-,MTT,0.05 µg/mL
CC(C)c1nc(CN(C)C(=O)N[C@H](C(=O)N[C@@H](Cc2ccccc2)C[C@H](O)[C@H](Cc2ccccc2)NC(=O)OCc2cncs2)C(C)C)cs1,NL4-3-P22 (PR D30N A71V),PR-D30N A71V,p24,<0.09 µM
Nc1ccn([C@H]2CC[C@@H](CO)O2)c(=O)n1,IIIB,-,cytopathic effect / MTT,0.66 µM
Nc1nc2c(ncn2[C@H]2CC[C@@H](CO)O2)c(=O)[nH]1,IIIB,-,cytopathic effect / trypan blue,15.4 µM
c1cc(CN2CCCNCCNCCCNCC2)ccc1CN1CCCNCCNCCCNCC1,NL4-3,-,MTT,0.032 µM
c1cc(CN2CCCNCCNCCCNCC2)ccc1CN1CCCNCCNCCCNCC1,AMD3100RES (subtype B),-,MTT,0.08 µg/mL

A second listing of 6 rows from above:

compound	strain or isolate	mutations	read by	value
CC(C)=CCN1Cc2cc(Cl)ccc2NC(=S)C1C	-	-	cytopathic effect / MTT	1.6 µM
Nc1ccn([C@H]2CC[C@@H](CO)O2)c(=O)n1	IIIB	-	cytopathic effect / MTT	0.66 µM
CC(C)(C)NC(=O)[C@@H]1CN(S(=O)(=O)c2cccs2)CCN1C[C@@H](O)C[C@@H](Cc1ccccc1)C(=O)N[C@H]1c2ccccc2C[C@H]1O	IIIB	-	p24	<0.031 µM
O=C1c2c(O)c(=O)n(C34CC5CC(CC(O)(C5)C3)C4)c(=O)n2CCN1Cc1ccc(F)cc1	-	-	p24	<10 µM
CCOCn1c(Sc2cc(C)cc(C)c2)c(CC)c(=O)[nH]c1=S	IIIB	-	cytopathic effect / MTT	0.0056 µM
CC(C)(C)NC(=O)[C@@H]1C[C@@H]2CCCC[C@@H]2CN1C[C@@H](O)[C@H](Cc1ccccc1)NC(=O)O[C@@H]1CO[C@@H]2OCC[C@@H]21	IIIB	-	p24	<0.2 µM